Results of unrelated studies side by side (data: NIAID ChemDB).

Shared fields: growth or infection tests; agent: Plasmodium falciparum; endpoint: EC50

Conditions beyond the fields shown may differ between rows. ECn: concentration that inhibits the pathogen or its effect by n%. An empty or dashed field is not shown.

| structure | strain or isolate | mutations | cell line | method | value |
|---|---|---|---|---|---|
| C[C@@H]1CC[C@H]2[C@@H](C)C(=O)O[C@@H]3OC4(C)CC[C@@H]1[C@]32OO4 | GNF-Pf4492R-3 | GNF-Pf4492-resistant pfatp4 A187V | - | SYBR Green / fluorescence | 0.0185 µM |
| O=C(CC1NCC[C@@H]1O)Cn1cnc2ccccc2c1=O | K1 | - | Human A+ erythrocytes | LDH / absorbance | >1 µg/mL |
| O=C(CN1C(=O)CSC1=O)N1CCN(c2ccccc2)CC1 | W2 | Chloroquine-resistant | - | fluorescence | >10 µM |
| CC(C)(c1ccccc1)c1ccc(OCCCn2ccnc2)cc1 | 3D7 | - | Erythrocytes | flow cytometry | 5.38 µM |
| CCc1ncn(CC(=O)CC2NCCC[C@@H]2O)c(=O)c1CC | K1 | - | Human A+ erythrocytes | LDH / absorbance | 0.243 µg/mL |
| CC(NCc1ccc(OCc2ccccc2)cc1)C(O)c1ccccc1 | K1 | - | Erythrocytes | flow cytometry | 0.6032 µM |
| COc1ccc(N2CCN(C(=O)CN3C(=O)SC(=Cc4c(OC)cc(OC)cc4OC)C3=O)CC2)cc1 | W2 | Chloroquine-resistant | - | fluorescence | 1.21 µM |
| O[C@H](c1cc(C(F)(F)F)nc2c(C(F)(F)F)cccc12)[C@@H]1CCCCN1 | Dd2 (EF1) | Multidrug-resistant | - | SYBR Green / fluorescence | 0.0146 µM |
| C[C@H]1[C@@H](OC(=O)CCC(=O)O)O[C@@H]2O[C@@]3(C)CC[C@H]4[C@H](C)CC[C@@H]1[C@@]24OO3 | W2 | - | human red blood cells | broth dilution / radiometric | 0.003 µM |
| CC(C)(O)[C@H](O)COc1c2occc2cc2ccc(=O)oc12 | CQ-sensitive | - | RBC | - | 6 µg/mL |
| O=C(CC1NCCC[C@@H]1O)Cn1cnc2c(c1=O)CCCCC2 | K1 | - | Human A+ erythrocytes | LDH / absorbance | 0.0452 µg/mL |
| CCCCC1(CC(=O)OCC)C(=O)N(c2ccccc2)N(c2ccccc2)C1=O | 3D7 | - | Erythrocytes | flow cytometry | >16.6 µM |
| O=C(CN1C(=O)SC(=Cc2ccc(Cl)cc2Cl)C1=O)N1CCN(c2ccccc2)CC1 | W2 | Chloroquine-resistant | - | fluorescence | >10 µM |
| c1ccc(-c2ccccc2OCCCCN2CCCCC2)cc1 | K1 | - | Erythrocytes | flow cytometry | 3.11 µM |
| O=c1c2ccccc2ncn1CC1(O)CC2NCCCC[C@@H]2O1 | FCR3 | - | Human A+ erythrocytes | LDH / absorbance | 0.123 µg/mL |
| Cc1ccc(OCC(O)CN2CCc3ccccc3C2)c(C(C)(C)C)c1 | 3D7 | - | Erythrocytes | flow cytometry | 6.03 µM |
| O=C(C[C@H]1NCCC[C@@H]1O)Cn1cnc2c(c1=O)CCC2 | K1 | - | Human A+ erythrocytes | LDH / absorbance | 0.0911 µg/mL |
| C[C@@H]1CC[C@H]2[C@@H](C)C(=O)O[C@@H]3OC4(C)CC[C@@H]1[C@]32OO4 | FCR3 | - | Erythrocyte | LDH | 0.006 µg/mL |
| CCCCN(CCCC)CC(O)COc1ccc2ccccc2c1 | 3D7 | - | Erythrocytes | flow cytometry | 3.49 µM |
| O=C(O)c1cccc(C=C2SC(=O)N(CC(=O)N3CCN(c4ccccc4)CC3)C2=O)c1 | W2 | Chloroquine-resistant | - | fluorescence | >10 µM |
| CC(NCC(O)COc1ccccc1C(C)(C)C)c1ccccc1 | K1 | - | Erythrocytes | flow cytometry | 0.7109 µM |
| C[C@@H]1CC[C@H]2[C@@H](C)C(=O)O[C@@H]3OC4(C)CC[C@@H]1[C@]32OO4 | FcB1 | - | human red blood cells | broth dilution / radiometric | 0.01 µM |

2 of the rows above, restated:

structure,strain or isolate,mutations,cell line,method,value
CC(C)(c1ccccc1)c1ccc(OCCCn2ccnc2)cc1,3D7,-,Erythrocytes,flow cytometry,5.38 µM
O=C(CN1C(=O)SC(=Cc2ccc(Cl)cc2Cl)C1=O)N1CCN(c2ccccc2)CC1,W2,Chloroquine-resistant,-,fluorescence,>10 µM